Experimental data from patent US20150139959A1 (priority 2009, published 2015).

Tests used:
[1] = tested on: Caco-2 cells; assay: MTT bioassay of cell viability (metabolic activity); assay type: cell-based, Human; conditions: 48 h incubation
[2] = tested on: 3T3 mouse fibroblasts; assay: Cell proliferation ELISA, BrdU incorporation (DNA synthesis); assay type: cell-based; conditions: 24 h incubation + 12 h BrdU labeling

Substance: 3-keto-DON
- MTT bioassay IC50 (95% Confidence Interval) [1]: 1.24 (0.942, 1.62) μg/mL
- BrdU bioassay IC50 (95% Confidence Interval) [2]: 1.08 (0.681, 1.72) μg/mL
